What all share (assay): polyreactivity ELISA
What all share (design): unit not given beside the values

One assay deals with T1, Tg.
T1 construct: also called thyroglobulin

A further assay addresses T2, gp140 (HIV-1).
T2 construct: recombinant, coated at 125 ng/well; also called YU2 HIV-1 Env gp140

For the next assay, the target named is MAPK14.
A further assay concerns the target T3, LZ.
T3 construct: also called lysozyme

Results on one molecule are retold here after patent US20240336672A1 (INSTITUT PASTEUR, published 2024).

B1: Cv2.3132 (IgG) (antibody, V domains shown)
VH: EVQLVESGGGLVKPGGSLRLSCAASGFTFSDYYMSWIRQAPGKGLEWVSYISSSGSVQYYADSVKGRFTISRDNAENSLYLQMNSLRAEDTAVYYCARYYYDSSGYWKRLDYWGQGTLVTVSS
VL: not shown
Take B1: the “AUC (polyreactivity ELISA)” value with Tg was 0.3; with gp140 it was 0.3; in the assay with MAPK14, 0.5; with LZ it was 0.4.
